Results of unrelated studies side by side (data: NIAID ChemDB).

Common to all: tests in culture; agent: HIV-1; cells: MT-4; measure: EC50

ECn: concentration that inhibits the pathogen or its effect by n%. Conditions beyond the fields shown may differ between rows.

N#Cc1c2c3c(c4ccccc4n3CC(CN3CCOCC3)O2)n(-c2ccc([N+](=O)[O-])cc2)c1=O ; strain or isolate: LAI ; method: cytopathic effect / MTT ; result: 4.51 µM
COc1ccc(-c2nnc(SN3CCOCC3)n2N)cc1 ; strain or isolate: IIIB ; result: >100 µM
O=[N+]([O-])c1ccc2c(c1)nnc1c(Br)cnn12 ; strain or isolate: IIIB ; method: cytopathic effect / MTT ; result: >200 µM
CC1(C)[C@@H](O[C@H]2O[C@H](C(=O)O)[C@@H](O)[C@H](O)[C@H]2O[C@@H]2O[C@H](C(=O)O)[C@@H](O)[C@H](O)[C@H]2O)CC[C@]2(C)[C@H]3C(=O)C=C4[C@@H]5C[C@@](C)(C(=O)O)CC[C@]5(C)CC[C@@]4(C)[C@]3(C)CC[C@@H]12 ; strain or isolate: IIIB ; method: cytopathic effect / MTT ; result: <620 µM
N#Cc1c2c3c(c4ccccc4n3CC(CN3CCCC3)O2)n(-c2ccc([N+](=O)[O-])cc2)c1=O ; strain or isolate: LAI ; method: cytopathic effect / MTT ; result: 0.34 µM
CCC(O)C(N)C(=O)O ; method: syncytia ; result: <750 µM
CC1(C)[C@@H](O[C@H]2O[C@H](CO)[C@@H](O)[C@H](O)[C@H]2O[C@@H]2O[C@H](CO)[C@@H](O)[C@H](O)[C@H]2O)CC[C@]2(C)C3C=CC4=C5C[C@@](C)(CO)CC[C@]5(C)CC[C@@]4(C)[C@]3(C)CC[C@@H]12 ; strain or isolate: IIIB ; method: cytopathic effect / MTT ; result: ~160 µM
COc1ccc(-c2n[nH]c(=S)n2N)cc1 ; strain or isolate: NNRTI-resistant N119 ; changes: RT-Y181C ; result: >100 µM
O=C(NCc1ccc(F)cc1)C1C(=O)N(O)C(=O)c2ccccc21 ; strain or isolate: IIIB ; method: cytopathic effect / MTT ; result: 2.34 µM
O=[N+]([O-])c1ccc2c(c1)nnc1c([N+](=O)[O-])cnn12 ; strain or isolate: IIIB ; method: cytopathic effect / MTT ; result: >1.4 µM
Cc1ccc(-c2cc(-c3ccc(Cl)cc3)nc(/N=C3\C(=O)N(CN4CCCCC4)c4ccc(Br)cc43)n2)cc1 ; strain or isolate: IIIB ; method: cytopathic effect / MTT ; result: >1 µM
Cc1ccnc2c1NC(=O)c1cccnc1N2C1CC1 ; strain or isolate: IIIB ; method: MTT ; result: 0.083 µg/mL
Cc1nc2ccccc2c(-c2cc(F)c3c(c2C)CCCO3)c1[C@H](OC(C)(C)C)C(=O)O ; strain or isolate: NL4-3 ; changes: A129T ; method: luminescence ; result: 5.74 µM
Cc1ccnc2c1NC(=O)c1cccnc1N2C1CC1 ; changes: MDR (74V 41L 106A 215Y) ; method: MTT ; result: 5 µM
CCOC(=O)c1cnn2c1n[n+]([O-])c1cc(Cl)ccc12 ; strain or isolate: IIIB ; method: cytopathic effect / MTT ; result: >200 µM
COc1ccc(-c2nnc(S(=O)(=O)[C@@H]3O[C@H](COC(C)=O)[C@@H](OC(C)=O)[C@H](OC(C)=O)[C@H]3OC(C)=O)n2N)cc1 ; strain or isolate: NNRTI-resistant N119 ; changes: RT-Y181C ; result: >100 µM
Cc1ccc(-c2cc(-c3ccc(Cl)cc3)nc(/N=C3\C(=O)N(CN4CCCCC4)c4ccc(Cl)cc43)n2)cc1 ; strain or isolate: IIIB ; method: cytopathic effect / MTT ; result: >3 µM
COc1cc2c(cc1Cc1cccc(Cl)c1F)c(=O)c(C(=O)O)cn2[C@H](CO)C(C)C ; strain or isolate: NL4-3 ; method: luminescence ; result: 0.002 µM
C#C[C@]1(CO)O[C@@H](n2cnc3cncnc32)C[C@@H]1O ; strain or isolate: IIIB ; method: cytopathic effect / MTT ; result: 38 µg/mL
Cc1ccc(-c2cc(-c3ccc(Cl)cc3)nc(/N=C3\C(=O)Nc4ccc(Br)cc43)n2)cc1 ; strain or isolate: IIIB ; method: cytopathic effect / MTT ; result: >10 µM
N#Cc1c2c3c(c4ccccc4n3CC(CN3CCCCC3)O2)n(-c2ccc([N+](=O)[O-])cc2)c1=O ; strain or isolate: LAI ; method: cytopathic effect / MTT ; result: 0.27 µM
Cc1ccc(-c2cc(-c3ccc(Cl)cc3)nc(/N=C3\C(=O)N(CN4CCCCC4)c4ccccc43)n2)cc1 ; strain or isolate: IIIB ; method: cytopathic effect / MTT ; result: >1 µM
N#Cc1c2c3c(c4ccccc4n3CC(CO)O2)n(-c2ccc([N+](=O)[O-])cc2)c1=O ; strain or isolate: LAI ; method: cytopathic effect / MTT ; result: 0.74 µM
Cc1ccc(-c2cc(-c3ccc(Cl)cc3)nc(/N=C3\C(=O)N(CN(C)C)c4ccc(Cl)cc43)n2)cc1 ; strain or isolate: IIIB ; method: cytopathic effect / MTT ; result: >7 µM
O=[N+]([O-])c1cnn2c1n[n+]([O-])c1cc(Cl)ccc12 ; strain or isolate: IIIB ; method: cytopathic effect / MTT ; result: >1.4 µM
Cc1cn([C@H]2C[C@H](N=[N+]=[N-])[C@@H](CO)O2)c(=O)[nH]c1=O ; changes: A17 (K103N Y181C) ; method: MTT ; result: 0.01 µM
Cc1ccc(-c2nnc3sc(CN4C(=O)c5ccccc5C4=O)nn23)cc1 ; strain or isolate: NNRTI-resistant N119 ; changes: RT-Y181C ; result: >100 µM
CC1(C)CC=C(c2cn(-c3nccc(C(=O)NC4CCC(N5CC6CCC(C5)O6)CC4)n3)c3ccc(F)c([C@H](OC(C)(C)C)C(=O)O)c23)CC1 ; strain or isolate: NL4-3 ; changes: T124A/T125A ; method: luminescence ; result: 0.0048 µM
O=C(Cc1nc2ccccc2[nH]1)c1ccc(O)cc1O ; strain or isolate: IIIB ; method: cytopathic effect ; result: 321 µM
Cc1ccc(-c2cc(-c3ccc(Cl)cc3)nc(/N=C3\C(=O)N(CN4CCOCC4)c4ccc(Cl)cc43)n2)cc1 ; strain or isolate: IIIB ; method: cytopathic effect / MTT ; result: >3 µM

Repeating the first 4 entries:

N#Cc1c2c3c(c4ccccc4n3CC(CN3CCOCC3)O2)n(-c2ccc([N+](=O)[O-])cc2)c1=O ; strain or isolate: LAI ; method: cytopathic effect / MTT ; result: 4.51 µM
COc1ccc(-c2nnc(SN3CCOCC3)n2N)cc1 ; strain or isolate: IIIB ; result: >100 µM
O=[N+]([O-])c1ccc2c(c1)nnc1c(Br)cnn12 ; strain or isolate: IIIB ; method: cytopathic effect / MTT ; result: >200 µM
CC1(C)[C@@H](O[C@H]2O[C@H](C(=O)O)[C@@H](O)[C@H](O)[C@H]2O[C@@H]2O[C@H](C(=O)O)[C@@H](O)[C@H](O)[C@H]2O)CC[C@]2(C)[C@H]3C(=O)C=C4[C@@H]5C[C@@](C)(C(=O)O)CC[C@]5(C)CC[C@@]4(C)[C@]3(C)CC[C@@H]12 ; strain or isolate: IIIB ; method: cytopathic effect / MTT ; result: <620 µM